According to patent US9839708B2, “Method for treating used absorbent article” (Unicharm Corporation, priority 2012, dated 2017):

Test: Evaluation of washing function (whiteness ΔE of washed artificially soiled cloth)
Conditions: Soiled cloth: ΔE = 50.0; Original cloth: 9.4; washed 10 minutes twice, colorimeter

## OCl [compound 3, sodium hypochlorite]
  Washing Function ΔE: 24.9

## [Na+].[O-]Cl [compound 4, sodium hypochlorite]
  Washing Function ΔE: 24.6

## OCl [compound 5, sodium hypochlorite]
  Washing Function ΔE: 19.7
